Compound potency records, mixed from different reports. Data source: NIAID ChemDB in PubChem.

All rows: tests in culture; species: HIV-1; method: p24; measure: EC50

Lines come from different laboratories, so protocols vary.

smiles	cells	mutations	setting	strain	result
CS(=O)(=O)c1ccc(NC(=O)COc2cc(Cl)cc(Oc3cc(Cl)cc(C#N)c3)c2)c(Cl)c1	MT-4				<20 µM
Cc1ccccc1S(=O)(=O)c1c(C(=O)NCCO)[nH]c2ccc(Cl)cc12	Macrophage + Macrophages			BAL R5	2 µM
O=C(O[C@@H]1Cc2c(O)cc(O)cc2O[C@@H]1c1cc(O)c(O)c(O)c1)c1cc(O)c(O)c(O)c1	MT-2			IIIB	9.89 µM
COC(=O)c1cc2c(OC)cc(N)cc2[nH]1					1.09 µg/mL
COc1ccccc1CCNC(=O)OC[C@@H]1C=C[C@H](n2cc(C)c(=O)[nH]c2=O)O1	PBMC			IIIB	11.2 µM
CC(C)[C@H](NC(=O)[C@H](Cc1ccncc1)CS(=O)(=O)C(C)(C)C)C(=O)N[C@@H](Cc1ccccc1)[C@@H](O)[C@H](O)[C@H](Cc1ccccc1)NC(=O)[C@@H](NC(=O)[C@H](Cc1ccncc1)CS(=O)(=O)C(C)(C)C)C(C)C	PBLC			D34	25 µM
CCO[C@@H]1Cc2cc(C(F)(F)F)ccc2C1N1CCN(C2(C)CCN(C(=O)c3c(C)ncnc3C)CC2)C[C@@H]1C	PBMC			BaL	0.0015 µM
CCC[C@H](NC(=O)[C@H](Cc1cccc2ccccc12)CS(=O)(=O)C(C)(C)C)C(=O)N[C@@H](Cc1ccccc1)[C@@H](O)[C@H](O)[C@H](Cc1ccccc1)NC(=O)[C@H](CCC)NC(=O)[C@H](Cc1cccc2ccccc12)CS(=O)(=O)C(C)(C)C	PBLC			D34	0.004 µM
O=C(NCCO)c1[nH]c2ccc(Cl)cc2c1S(=O)(=O)c1ccccc1	Macrophage + Macrophages			BAL R5	0.4 µM
Cc1ccc(S(=O)(=O)c2c(C(N)=O)[nH]c3ccc(Cl)cc23)c(C)c1	C8166			IIIB	<0.01 µM
CCOC(=O)c1cn2c(c1O)C(=O)N(Cc1cccc(Cl)c1)CC2	MT-4				<20 µM
Cc1cc(C)cc(S(=O)(=O)c2c(C(N)=O)[nH]c3ccc(Cl)cc23)c1	C8166			IIIB	<0.002 µM
Cc1cc(C)cc(S(=O)(=O)c2c(C(=O)NCC(=O)NN)[nH]c3ccc(Cl)cc23)c1	C8166			EFV-resistant (RT K103R V179D P225H)	<1 µM
CNC(=O)c1cn2c(c1O)C(=O)N(Cc1ccc(Cl)cc1)CC2	MT-4				<20 µM
CC(C)(C)S(=O)(=O)C[C@@H](Cc1cccc2ccccc12)C(=O)N[C@H](C(=O)N[C@@H](Cc1ccccc1)[C@@H](O)[C@H](O)[C@H](Cc1ccccc1)NC(=O)[C@@H](NC(=O)[C@H](Cc1cccc2ccccc12)CS(=O)(=O)C(C)(C)C)C1CCCC1)C1CCCC1	PBLC			D34	0.007 µM
CS(=O)(=O)c1ccc(NC(=O)COc2ccc(Cl)c(Oc3cc(Cl)cc(C#N)c3)c2)c(Cl)c1	MT-4				<20 µM
CSc1cc(N)nc(S[C@@H](C)c2cc3ccoc3cn2)n1	MT-4			IIIB	<0.008 µM
Clc1cc(CN2CCCNCCNCCCNCC2)cc(Cl)n1	PBMC			R5 X4 clinical isolate #16	1.8 µM
CC(C)=CCOc1cc(NC(=S)c2ccoc2C)ccc1Cl	CEM + CEM-SS	RT-D67N K70R Y181C T215Y K219Q		4XAZT+Y181C (RT D67N K70R Y181C T215Y K219Q)	0.2 µM
Cc1cn([C@H]2C=C[C@@H](COC(=O)NCCc3ccccn3)O2)c(=O)[nH]c1=O	PBMC			IIIB	>100 µM
COc1cc(N)cc2[nH]c(CC(=O)O)cc12					0.43 µg/mL
CNC(=O)c1cn2c(c1O)C(=O)N(Cc1ccc(F)c(F)c1)CC2	MT-4				<20 µM
O=c1[nH]c(=S)[nH]c2c1C(c1ccc([N+](=O)[O-])cc1)c1c(nc(=S)[nH]c1Cl)O2	MT-4				<5 µg/mL
Cc1cc(C)cc(S(=O)(=O)c2c(C(=O)NCC(=O)NC(C)C(=O)NN)[nH]c3ccc(Cl)cc23)c1	C8166			IIIB	<0.12 µM
COC(=O)c1cc2c(OC)cc(N)cc2o1					2.06 µg/mL
N#Cc1cc(Cl)cc(Oc2cc(Cl)cc(OCC(=O)NC3CCS(=O)(=O)C3)c2)c1	MT-4				<20 µM
Cc1cn([C@H]2C[C@H](N=[N+]=[N-])[C@@H](COP(=O)(O)C(N)=O)O2)c(=O)[nH]c1=O	MT-4			GKV-4046	0.8 µM
Cc1c(O)cccc1C(=O)N[C@@H](CC(C)C)C(=O)N(c1ccccc1)N(CCO)C(=O)[C@@H]1CCCN1C(=O)OC(C)(C)C	MOLT-4			IIIB	26.7 µM
O=c1c(O)cc([C@H]2Oc3cc(O)cc(O)c3C[C@H]2O)cc2c([C@H]3Oc4cc(O)cc(O)c4C[C@H]3O)cc(O)c(O)c12	MT-2			IIIB	5.33 µM
CSCC[C@H](NC(=O)c1cccc(O)c1C)C(=O)N(Cc1ccccc1)N(CCO)C(=O)[C@@H]1CCCN1C(=O)OC(C)(C)C	MOLT-4			IIIB	32.4 µM
COc1ccc(OC)c(CCNC(=O)OC[C@@H]2C=C[C@H](n3cc(C)c(=O)[nH]c3=O)O2)c1	PBMC			IIIB	>100 µM
CC(C)[C@H](NC(=O)[C@H](Cc1cccc2ccccc12)CS(=O)(=O)C(C)(C)C)C(=O)N[C@@H](Cc1ccccc1)[C@H](O)[C@@H](O)[C@H](Cc1ccccc1)NC(=O)[C@@H](NC(=O)[C@H](Cc1cccc2ccccc12)CS(=O)(=O)C(C)(C)C)C(C)C	PBLC			D34	0.02 µM
Cc1cn([C@H]2C=C[C@@H](COC(=O)NCCc3ccccc3F)O2)c(=O)[nH]c1=O	PBMC			IIIB	25.4 µM
CC(O)[C@H](NC(=O)[C@H](Cc1cccc2ccccc12)CS(=O)(=O)C(C)(C)C)C(=O)N[C@@H](Cc1ccccc1)[C@@H](O)[C@H](O)[C@H](Cc1ccccc1)NC(=O)[C@@H](NC(=O)[C@H](Cc1cccc2ccccc12)CS(=O)(=O)C(C)(C)C)C(C)O	PBLC			D34	2 µM
COc1cc(N)cc2[nH]cc(C(=O)O)c12					0.87 µg/mL
Cc1cc(C)cc(S(=O)(=O)c2c(C(N)=O)[nH]c3c(Cl)cc(Cl)cc23)c1	C8166	RT-Y181C		IIIB	>100 µM
N#Cc1cc(Cl)cc(Oc2cc(OCc3[nH]nc4ncccc34)cc(F)c2Cl)c1	MT-4				<20 µM
C=C(C)[C@@H]1CC[C@]2(C(=O)NCCCCCCCC(=O)N[C@@H](CC(C)C)[C@@H](O)CC(=O)O)CC[C@]3(C)[C@H](CC[C@@H]4[C@@]5(C)CC[C@H](O)C(C)(C)[C@@H]5CC[C@]43C)[C@@H]12	CEM + CEM-4			LAI	0.1 µM
CC(C)[C@H](NC(=O)[C@H](Cc1cccc2ccccc12)CS(=O)(=O)C(C)(C)C)C(=O)N[C@@H](Cc1ccc2c(c1)OCO2)[C@@H](O)[C@H](O)[C@H](Cc1ccc2c(c1)OCO2)NC(=O)[C@@H](NC(=O)[C@H](Cc1cccc2ccccc12)CS(=O)(=O)C(C)(C)C)C(C)C	PBLC			D34	0.02 µM
CSc1ccccc1OC(C)=O	PBMC			BaL	223 µM
Cc1cn([C@H]2C=C[C@@H](COC(=O)NCCC3=CCCCC3)O2)c(=O)[nH]c1=O	PBMC			IIIB	50 µM
Cc1cc(C)cc(S(=O)(=O)c2c(C(=O)NC(C)C(N)=O)[nH]c3ccc(Cl)cc23)c1	C8166			IIIB	<0.004 µM
Cc1c(O)cccc1C(=O)N[C@@H](CC(C)C)C(=O)N(c1ccccc1)N(CO)C(=O)[C@@H]1CCCN1C(=O)OC(C)(C)C	MOLT-4			IIIB	28 µM
CC(C)[C@H](NC(=O)[C@H](Cc1cccc2ccccc12)CS(=O)(=O)C(C)(C)C)C(=O)N[C@@H](Cc1ccccc1)[C@H](O)[C@H](O)[C@H](Cc1ccccc1)NC(=O)[C@@H](NC(=O)[C@H](Cc1cccc2ccccc12)CS(=O)(=O)C(C)(C)C)C(C)C	PBLC			D34	0.217 µM
C=C(C)[C@@H]1CC[C@]2(C(=O)O)CC[C@]3(C)[C@H](CC[C@@H]4[C@@]5(C)CC[C@H](OC(=O)CC(C)(C)C(=O)O)C(C)(C)[C@@H]5CC[C@]43C)[C@@H]12	H9			IIIB	0.00035 µM
COC(=O)c1cc2ccc(N)cc2[nH]1					0.2 µg/mL
CCCCC#CCSc1ccccc1OC(C)=O	U1/HIV-1 + U1		chronic infection		>30 µM
NC(=O)c1[nH]c2ccc(Cl)cc2c1S(=O)(=O)c1ccccc1	C8166			IIIB	<0.007 µM
CC(C)[C@H](NC(=O)[C@H](Cc1ccccc1)NC(=O)[C@H](O)[C@@H](O)[C@H](O)[C@H](O)CO)C(=O)N[C@@H](Cc1ccccc1)[C@@H](O)[C@H](O)[C@H](Cc1ccccc1)NC(=O)[C@@H](NC(=O)[C@H](Cc1ccccc1)NC(=O)[C@H](O)[C@@H](O)[C@H](O)[C@H](O)CO)C(C)C	PBLC			D34	>25 µM
Nc1ccn([C@@H]2O[C@H](CO)C=C2F)c(=O)n1	CEM				15–48 µM
N#Cc1cc(Cl)cc(Oc2cc(Cl)cc(OCC(=O)Nc3ccc4[nH]cnc4c3Cl)c2)c1	MT-4				<20 µM
Cc1cn([C@H]2C[C@H](N=[N+]=[N-])[C@@H](COP(=O)(O)C(=O)NCCN)O2)c(=O)[nH]c1=O	MT-4			GKV-4046	1.7 µM
Nc1ccn([C@@H]2CS[C@H](CO)O2)c(=O)n1	H9				0.1 µM
Cc1cn([C@@H]2O[C@H](CO)C=C2F)c(=O)[nH]c1=O	CEM				10–100 µM
Nc1[nH]c(=S)nc2c1C(c1ccc([N+](=O)[O-])cc1)c1c(nc(=S)[nH]c1N)O2	MT-4				<5 µg/mL
O=C(Oc1cc(O)cc2c1C[C@@H](OC(=O)c1cc(O)c(O)c(O)c1)[C@@H](c1cc(O)c(O)c(O)c1)O2)c1cc(O)c(O)c(O)c1	MT-2			IIIB	2.63 µM
CNC(=O)c1cn2c(c1O)C(=O)N(Cc1ccc(F)cc1)CC2	MT-4				<20 µM
CCCCCCNC(=O)P(=O)(O)OC[C@H]1O[C@@H](n2cc(C)c(=O)[nH]c2=O)C[C@@H]1N=[N+]=[N-]	MT-4			GKV-4046	0.11 µM
CC1(C)C2CCC3C(C(=O)C=C4C5C[C@@](C)(C(=O)O)CC[C@]5(C)CC[C@]43C)[C@@]2(C)CC[C@@H]1O[C@@H]1O[C@H](C(=O)O)[C@@H](O[C@@H]2O[C@H](C(=O)O)[C@@H](O)[C@H](O)[C@H]2O)[C@H](O)[C@H]1O	MT-4			EVK	105 µg/mL
NC(=O)c1[nH]c2ccc(Cl)cc2c1S(=O)(=O)c1ccccc1	C8166			EFV-resistant (RT K103R V179D P225H)	<0.9 µM
N#Cc1cc(Cl)cc(Oc2cc(OCc3[nH]nc4nc(N5CC(CN)C5)ccc34)ccc2Cl)c1	MT-4				<20 µM
CCOC(=O)c1cn2c(c1O)C(=O)N(Cc1ccccc1)CC2	MT-4				<20 µM
CC(NC(=O)c1[nH]c2ccc(Cl)cc2c1S(=O)(=O)c1ccccc1)C(N)=O	C8166			EFV-resistant (RT K103R V179D P225H)	<3 µM
C=C1CN(S(=O)(=O)c2ccc(C)cc2)CCCN(CC2CCCCC2)CCCN(S(=O)(=O)c2ccc(C)cc2)C1	Monocytes/macrophages			BaL	0.29 µM

Repeating the first 4 entries:

smiles	cells	mutations	setting	strain	result
CS(=O)(=O)c1ccc(NC(=O)COc2cc(Cl)cc(Oc3cc(Cl)cc(C#N)c3)c2)c(Cl)c1	MT-4				<20 µM
Cc1ccccc1S(=O)(=O)c1c(C(=O)NCCO)[nH]c2ccc(Cl)cc12	Macrophage + Macrophages			BAL R5	2 µM
O=C(O[C@@H]1Cc2c(O)cc(O)cc2O[C@@H]1c1cc(O)c(O)c(O)c1)c1cc(O)c(O)c(O)c1	MT-2			IIIB	9.89 µM
COC(=O)c1cc2c(OC)cc(N)cc2[nH]1					1.09 µg/mL

An empty or dashed field is not shown. Two numbers with a dash give a range or band. ECn is the concentration giving n% inhibition of infection, replication or growth.